# Test system: WT HIV-1 (strain IIIB)
# Format: cell-based
# Conditions: for SI (IIIB): selectivity index, ratio CC50/EC50 (WT)
# Experimental: The newly synthesized compounds were evaluated for their potency and cytotoxicity against the WT HIV-1 (strain IIIB) in MT-4 cells using the MTT method. The biological evaluation results are represented as EC50 values (anti-HIV-1 activity), CC50 values (cytotoxicity), and SI values (selectivity index, CC50/EC50 ratio).
Structure (SMILES),SI (IIIB),Improvement of activity against WT HIV-1 compared with 10c (MT-4 cells)
"N#Cc1ccc(Nc2nccc(C(C#N)c3ccc(-c4ccccc4)cc3)n2)cc1 (racemic) [Compound 10a, (±)-4-((4-([1,1′-biphenyl]-4-yl(cyano)methyl)pyrimidin-2-yl)amino)benzonitrile]",11,–
"N#Cc1ccc(Nc2nccc(C(C#N)c3ccc(-c4ccccc4)c(F)c3)n2)cc1 (racemic) [Compound 10b, (±)-4-((4-(cyano(2-fluoro-[1,1′-biphenyl]-4-yl)methyl)pyrimidin-2-yl)amino)benzonitrile]",6,–
"N#Cc1ccc(Nc2nccc(C(C#N)c3ccc(-c4ccccc4)cc3F)n2)cc1 (racemic) [Compound 10c, (±)-4-((4-(cyano(3-fluoro-[1,1′-biphenyl]-4-yl)methyl)pyrimidin-2-yl)amino)benzonitrile]",73,–
"Cc1ccccc1-c1ccc(C(C#N)c2ccnc(Nc3ccc(C#N)cc3)n2)c(F)c1 (racemic) [Compound 10d, (±)-4-((4-(cyano(3-fluoro-2′-methyl-[1,1′-biphenyl]-4-yl)methyl)pyrimidin-2-yl)amino)benzonitrile]",70,–
"Cc1cccc(-c2ccc(C(C#N)c3ccnc(Nc4ccc(C#N)cc4)n3)c(F)c2)c1 (racemic) [Compound 10e, (±)-4-((4-(cyano(3-fluoro-3′-methyl-[1,1′-biphenyl]-4-yl)methyl)pyrimidin-2-yl)amino)benzonitrile]",63,–
"Cc1ccc(-c2ccc(C(C#N)c3ccnc(Nc4ccc(C#N)cc4)n3)c(F)c2)cc1 (racemic) [Compound 10f, (±)-4-((4-(cyano(3-fluoro-4′-methyl-[1,1′-biphenyl]-4-yl)methyl)pyrimidin-2-yl)amino)benzonitrile]",72,–
"COc1ccccc1-c1ccc(C(C#N)c2ccnc(Nc3ccc(C#N)cc3)n2)c(F)c1 (racemic) [Compound 10g, (±)-4-((4-(cyano(3-fluoro-2′-methoxy-[1,1′-biphenyl]-4-yl)methyl)pyrimidin-2-yl)amino)benzonitrile]",49,–
"COc1cccc(-c2ccc(C(C#N)c3ccnc(Nc4ccc(C#N)cc4)n3)c(F)c2)c1 (racemic) [Compound 10h, (±)-4-((4-(cyano(3-fluoro-3′-methoxy-[1,1′-biphenyl]-4-yl)methyl)pyrimidin-2-yl)amino)benzonitrile]",20,–
"COc1ccc(-c2ccc(C(C#N)c3ccnc(Nc4ccc(C#N)cc4)n3)c(F)c2)cc1 (racemic) [Compound 10i, (±)-4-((4-(cyano(3-fluoro-4′-methoxy-[1,1′-biphenyl]-4-yl)methyl)pyrimidin-2-yl)amino)benzonitrile]",361,–
"N#Cc1ccc(Nc2nccc(C(C#N)c3ccc(-c4ccccc4F)cc3F)n2)cc1 (racemic) [Compound 10j, (±)-4-((4-(cyano(2′,3-difluoro-[1,1′-biphenyl]-4-yl)methyl)pyrimidin-2-yl)amino)benzonitrile]",131,–
"N#Cc1ccc(Nc2nccc(C(C#N)c3ccc(-c4cccc(F)c4)cc3F)n2)cc1 (racemic) [Compound 10k, (±)-4-((4-(cyano(3,3′-difluoro-[1,1′-biphenyl]-4-yl)methyl)pyrimidin-2-yl)amino)benzonitrile]",55,–
"N#Cc1ccc(Nc2nccc(C(C#N)c3ccc(-c4ccc(F)cc4)cc3F)n2)cc1 (racemic) [Compound 10l, (±)-4-((4-(cyano(3,4′-difluoro-[1,1′-biphenyl]-4-yl)methyl)pyrimidin-2-yl)amino)benzonitrile]",139,–
"N#Cc1ccc(Nc2nccc(C(C#N)c3ccc(-c4ccccc4Cl)cc3F)n2)cc1 (racemic) [Compound 10m, (±)-4-((4-((2′-chloro-3-fluoro-[1,1′-biphenyl]-4-yl)(cyano)methyl)pyrimidin-2-yl)amino)benzonitrile]",81,–
"N#Cc1ccc(Nc2nccc(C(C#N)c3ccc(-c4cccc(Cl)c4)cc3F)n2)cc1 (racemic) [Compound 10n, (±)-4-((4-((3′-chloro-3-fluoro-[1,1′-biphenyl]-4-yl)(cyano)methyl)pyrimidin-2-yl)amino)benzonitrile]",71,–
"N#Cc1ccc(Nc2nccc(C(C#N)c3ccc(-c4ccc(Cl)cc4)cc3F)n2)cc1 (racemic) [Compound 10o, (±)-4-((4-((4′-chloro-3-fluoro-[1,1′-biphenyl]-4-yl)(cyano)methyl)pyrimidin-2-yl)amino)benzonitrile]",153,–
"N#Cc1ccc(Nc2nccc(C(C#N)c3ccc(-c4ccc(C#N)cc4)cc3F)n2)cc1 (racemic) [Compound 10p, (±)-4′-(cyano(2-((4-cyanophenyl)amino)pyrimidin-4-yl)methyl)-3′-fluoro-[1,1′-biphenyl]-4-carbonitrile]",1361,12 fold
"Nc1ccn([C@@H]2CS[C@H](CO)O2)c(=O)n1 [Compound 3TC, lamivudine, reference compound]",>11,–
"Cc1cc(/C=C/C#N)cc(C)c1Nc1ccnc(Nc2ccc(C#N)cc2)n1 [RPV, rilpivirine, reference compound]",3747,–

# Source: paper PMC7179183, “Design of Biphenyl-Substituted Diarylpyrimidines with a Cyanomethyl Linker as HIV-1 NNRTIs via a Molecular Hybridization Strategy” (Molecules, 2020)
